Measured values from several laboratories, pooled; numbers as filed in NIAID ChemDB.

Shared fields: whole-cell or culture tests; organism: HIV-2

Conditions beyond the fields shown may differ between rows.

compound | strain or isolate | changes | cells | method | setting | read-out | dose | result
O=c1[nH]cnc2c1ncn2[C@H]1CC[C@@H](CO)O1 | ROD |  | C8166 |  |  | EC50 |  | 15 µM
Cc1c(Cc2c(Cl)cccc2Cl)nc(SCc2cn(Cc3ccc(S(N)(=O)=O)cc3)nn2)[nH]c1=O | ROD |  |  | MTT |  | EC50 |  | >95.49 µM
Cc1cn([C@H]2C[C@H](N=[N+]=[N-])[C@@H](CO)O2)c(=O)[nH]c1=O | LAV-2 |  | CEM | virus yield |  | inhibition | 1 µM | 90%
CCCC(=O)O[C@H]1CN2CC[C@H](O)[C@@H]2[C@@H](O)[C@@H]1O | ROD |  | H9 |  |  | inhibition | 4 µM | 90%
COc1ccc(CN[C@@H](C(=O)N[C@H]2c3ccccc3C[C@H]2O)[C@H](O)[C@H](Cc2ccccc2)NC(=O)[C@@H](NC(=O)OCc2ccccc2)C(C)(C)C)cc1 | ROD |  | MT-4 | p24 |  | inhibition | 0.6 µM | 90%
Cc1ccnc2c1NC(=O)c1cccnc1N2C1CC1 | ROD |  | PBMC | RT activity |  | EC90 |  | >20 µM
CO[C@H]1[C@@H](O)[C@H](n2ccc(N)nc2=O)[C@@H](O)[C@H](O)[C@@H]1O |  |  | MT-4 | cytopathic effect / MTT |  | inhibition | 10 µg/mL | 22.6%
Cc1cn([C@H]2C[C@H](F)[C@@H](CO)O2)c(=O)[nH]c1=O | 336 |  | PBMC | ELISA |  | EC50 |  | 0.006 µM
Cc1cn([C@H]2C[C@H](N=[N+]=[N-])[C@@H](CO)O2)c(=O)[nH]c1=O |  |  | MT-4 | cytopathic effect / MTT |  | inhibition | 10 µg/mL | 73.5%
CN=C1CN=C(c2ccc[nH]2)c2cc(Cl)ccc2N1 | UC-1 |  | CEM | antigen |  | EC90 |  | 1–5 µM
CO[C@H]1[C@@H](O)[C@H](n2cnc3c(N)ncnc32)[C@@H](O)[C@H](O)[C@@H]1O |  |  | MT-4 | cytopathic effect / MTT |  | inhibition | 10 µg/mL | 62.5%
C1CNCCNCCCN(CCCN2CCCNCCNCCCNCC2)CCNC1 | ROD |  | MT-4 | cytopathic effect / MTT |  | EC90 |  | 1.99 µM
NC(=O)c1ccc(Cn2cc(CSc3nc(Cc4c(Cl)cccc4Cl)c(I)c(=O)[nH]3)nn2)cc1 | ROD |  |  | MTT |  | EC50 |  | >94.13 µM
N#CC[C@H](C1CCCC1)n1cc(-c2ncnc3[nH]ccc23)cn1 |  |  | PBMC | p24 / ELISA |  | EC90 |  | 0.4 µM
[B-]P(=O)([O-])CC[C@@H]1C=C[C@H](n2cc(C)c(=O)[nH]c2=O)O1 | ROD |  | CEM | syncytia |  | inhibition | 400 µM | 0%
CC(C)[C@H](NC(=O)c1ccc2ccccc2n1)C(=O)N[C@@H](Cc1ccccc1)[C@H](O)CN1CC[C@@H](OCc2ccncc2)C[C@H]1C(=O)NC(C)(C)C | ROD |  | CEMx174 + CEM | p24 |  | inhibition | 0.014 µM | 90%
C1CNCCNCCCN[C@H]([C@@H]2CNCCCNCCNCCCN2)CNC1 | ROD |  | CEM | antigen |  | EC90 |  | 0.58 µM
O=c1[nH]c(SCc2cn(Cc3ccc(F)cc3)nn2)nc(Cc2c(Cl)cccc2Cl)c1I | ROD |  |  | MTT |  | EC50 |  | >92.05 µM
Cc1cn([C@H]2C[C@H](N=[N+]=[N-])[C@@H](CO)O2)c(=O)[nH]c1=O | CDC310342 |  | PBMC | cytopathic effect / XTT | clinical isolate | EC50 |  | 0.006 µM
C#C[C@]1(CO)O[C@@H](n2cnc3c(N)nc(F)nc32)CC1O | ROD9 | K65R | MAGIC-5A | β-galactosidase / absorbance |  | fold resistance |  | 0.4
COc1ccc(Cn2cc(CSc3nc(Cc4c(Cl)cccc4Cl)c(C)c(=O)[nH]3)nn2)cc1 | ROD |  |  | MTT |  | EC50 |  | >28.98 µM
CC[C@@]1(O)C(=O)OCc2c1cc1n(c2=O)Cc2cc3cc(O)ccc3nc2-1 | ROD |  | C8166 | syncytia |  | EC50 |  | 0.025 µg/mL
CC(C)CN(C[C@@H](O)[C@H](Cc1ccccc1)NC(=O)[C@@H](NC(=O)CNCc1cccc(F)c1)C(C)(C)C)S(=O)(=O)c1ccc(N)cc1 |  |  | MT-2 | virus yield |  | EC90 |  | 0.032 µM
COC(=O)[C@H](C)NP(=O)(OC[C@@H]1C=C[C@H](n2cnc3c(N)ncnc32)O1)Oc1ccccc1 | ROD |  | C8166 |  |  | EC50 |  | 0.065 µM

For reference, 3 entries again:

C1CNCCNCCCN[C@H]([C@@H]2CNCCCNCCNCCCN2)CNC1 ; strain or isolate: ROD ; cells: CEM ; method: antigen ; read-out: EC90 ; result: 0.58 µM
CC(C)[C@H](NC(=O)c1ccc2ccccc2n1)C(=O)N[C@@H](Cc1ccccc1)[C@H](O)CN1CC[C@@H](OCc2ccncc2)C[C@H]1C(=O)NC(C)(C)C ; strain or isolate: ROD ; cells: CEMx174 + CEM ; method: p24 ; read-out: inhibition ; dose: 0.014 µM ; result: 90%
Cc1ccnc2c1NC(=O)c1cccnc1N2C1CC1 ; strain or isolate: ROD ; cells: PBMC ; method: RT activity ; read-out: EC90 ; result: >20 µM

An empty or dashed field is not shown. Percent inhibition refers to the dose given; in toxicity tests it is the harm to the cells. ECn: concentration that inhibits the pathogen or its effect by n%. Two numbers with a dash give a range or band. Fold resistance: result on the changed form divided by that on wild type.